IC50 data for one molecule are collected here from EP1345943B1, “INHIBITORS OF PAPILLOMA VIRUS” (BOEHRINGER INGELHEIM (CANADA) LTD., priority 2000, dated 2002).

Protein sequences, listed by entry. Tags and fused reporters are not part of them.
UniProt P04015, whole entry: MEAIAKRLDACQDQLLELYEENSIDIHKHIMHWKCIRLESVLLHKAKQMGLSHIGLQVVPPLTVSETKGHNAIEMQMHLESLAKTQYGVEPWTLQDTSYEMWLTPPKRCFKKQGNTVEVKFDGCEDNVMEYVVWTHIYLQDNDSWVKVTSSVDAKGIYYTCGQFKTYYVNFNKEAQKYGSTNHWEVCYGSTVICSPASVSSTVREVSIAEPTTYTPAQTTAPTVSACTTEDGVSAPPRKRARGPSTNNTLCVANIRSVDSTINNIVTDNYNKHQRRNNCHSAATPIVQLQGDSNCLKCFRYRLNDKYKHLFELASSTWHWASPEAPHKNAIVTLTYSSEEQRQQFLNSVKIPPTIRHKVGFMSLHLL

The target in the assay is E1-E2-DNA complex (Human papillomavirus 11, UniProt P04015). Put plainly: E2-dependent E1 DNA binding assay (E1-E2 DNA assay). The settings on record: E1-E2 DNA assay of Example 11, HPV-11; tested form: Na salt. How it is done:
This particular assay determines the ability of a test compound to inhibit the activity (IC50) of HPV-11 DNA replication. More specifically, in the assay described herein, the inhibitory activity of the test compound is evaluated based on its ability to interfere with the E1-E2-DNA origin of replication interaction, thereby inhibiting initiation of viral DNA replication.
This assay was modeled on a similar assay for SV40 T Antigen described by McKay (J. Mol. Biol., 1981,145:471). A 400bp radiolabeled DNA probe, containing the -HPV-11 origin of replication (Chiang et al.., 1992, Proc. Natl.-Acad. Sci. USA 89:5799) was produced by pcr, using plasmid pBluescript™ SK encoding the origin (nucleotides 7886-61 of the HPV-11 genome in unique BAMH1 site) as template and primers flanking the origin. Radiolabel was incorporated as [33p]dCTP. Binding assay buffer consisted of: 20 mM Tris pH 7.6, 100 mM NaCI, 1 mM DTT, 1 mM EDTA.
Other reagents used were protein A-SPA beads (type II, Amersham) and K72 rabbit polyclonal antiserum, raised against a peptide corresponding to the C-terminal 14 amino acids of HPV-11 E1. […] After an additional hour of incubation at room temperature, the reactions were centrifuged briefly to pellet the beads and the extent of complex formation was determined by scintillation counting on a Packard TopCount™. […]

What is called IC50 is the point on the concentration scale where inhibition reaches its midpoint. On to `Cc1cccc(NC(=O)[C@H]2[C@@H](c3ccc(Cl)c(Cl)c3)OC3(C(=O)c4ccccc4C3=O)[C@H]2C(=O)O)c1C` (relative stereo), for which the IC50 was in the range of 500 to 5000 nM.
